A mixed list of measured activities; the numbers were collected in NIAID ChemDB.

Shared fields: whole-cell or culture tests; organism: Herpes simplex virus 1; measure: EC50

ECn: concentration that inhibits the pathogen or its effect by n%.

compound	strain or isolate	cells	read by	result
CC(=O)NC[C@H]1O[C@@H](n2cc(I)c(=O)[nH]c2=O)C[C@@H]1O	-	BHK	plaque count	>11 µM
C[C@@]12CC[C@]3(C1)C(C[C@@H](O)[C@H]1[C@](C)(C(=O)O)CCC[C@@]13C)C[C@H]2O	F	HeLa	plaque count	95.2 µM
COc1cc([C@@H]2c3cc4c(cc3[C@H](O)[C@H]3COC(=O)[C@H]23)OCO4)cc(OC)c1OC	A4-3	MRC-5	-	0.014 µg/mL
Nc1nc(=O)n([C@@H]2O[C@H](CO)[C@@H](O)[C@@H]2F)cc1I	KOS PFA-resistant	HEL	cytopathic effect	0.04 µg/mL
C[C@@]12CC[C@]3(C1)C(C[C@@H](OC(=O)c1ccccc1)[C@H]1[C@](C)(C(=O)O)CCC[C@@]13C)C[C@@H]2O	F	HeLa	plaque count	29.5 µM
CCSC(=O)NC[C@H]1O[C@@H](n2cc(I)c(=O)[nH]c2=O)C[C@@H]1O	-	BHK	plaque count	>0.2 µM
Nc1nc(N)c2ncn(CCOCP(=O)(O)O)c2n1	KOS BVDU-resistant	HEL	cytopathic effect	6.8 µg/mL
CC(C)CC(=O)NC[C@H]1O[C@@H](n2cc(I)c(=O)[nH]c2=O)C[C@@H]1OC(=O)CC(C)C	-	BHK	plaque count	>0.2 µM
Nc1ncnc2c1ncn2C[C@@H](CO)OCP(=O)(O)O	KOS	U87MG	cytopathic effect	1.54 µg/mL
CCC(CO)Nc1c2ccc(Cl)cc2nc2ccc(OC)cc12	-	VERO 76	plaque count	>100 µM
Nc1ncnc2c1ccn2[C@@H]1O[C@H](CO)[C@@H](O)[C@H]1O	KOS	PRK	cytopathic effect	0.1 µg/mL
O=C(NC[C@H]1O[C@@H](n2cc(I)c(=O)[nH]c2=O)C[C@@H]1O)c1ccccc1	-	BHK	plaque count	>0.04 µM
O=c1[nH]c(=S)n([C@@H]2O[C@H](CO)[C@@H](O)[C@@H]2O)cc1Br	KOS	MRC-5	plaque count	11.8 µM
Nc1ncnc2c1ccn2[C@H]1C[C@H](O)[C@@H](CO)O1	KOS	PRK	cytopathic effect	50 µg/mL
CCC1OC(=O)C(C)CC(C)C(OC2OCCCC2O)C(C)C(=O)/C=C/C1(C)O	KOS	HeLa	cytopathic effect	>100 µg/mL
[N-]=[N+]=NC[C@H]1O[C@@H](n2ccc(=O)[nH]c2=O)C[C@@H]1O	-	BHK	plaque count	>2 µM
O=C(O)P(=O)(O)O	11-Aug	SIRC	plaque count	<500 µM
COc1ccc2nc3cc(Cl)ccc3c(NCCCN3CCOCC3)c2c1	-	VERO 76	plaque count	>52 µM
O=c1[nH]c(=O)n([C@H]2C[C@H](O)[C@@H](CO)O2)cc1/C=C/Br	-	U373-MG	plaque count	<0.01 µM
CC(N)Cc1ccccc1	KOS	HeLa	cytopathic effect	>200 µg/mL
O=C(O)CP(=O)(O)O	90155	SIRC	plaque count	<100 µM
CC(=O)O[C@H]1CC2C[C@@H](OC(=O)c3ccccc3)[C@H]3[C@](C)(C(=O)O)CCC[C@]3(C)[C@]23CC[C@]1(C)C3	F	HeLa	plaque count	9.8 µM
Nc1nc2c(ncn2COCCO)c(=O)[nH]1	-	U373-MG	plaque count	0.8 µM
C[C@@]12CC[C@]3(C1)C(C[C@@H](OC(=O)c1ccccc1)[C@H]1[C@@](CO)(C(=O)O)CCC[C@@]13C)C[C@@H]2O	F	HeLa	plaque count	1.7 µM
CCC(=O)O[C@@H]1CC(=O)O[C@H](C)C/C=C/C=C/[C@H](O[C@H]2CC[C@H](N(C)C)[C@H](C)O2)[C@H](C)C[C@H](CC=O)[C@H](O[C@@H]2O[C@H](C)[C@@H](O[C@H]3C[C@@](C)(O)[C@@H](O)[C@H](C)O3)[C@H](N(C)C)[C@H]2O)[C@H]1OC	KOS	HeLa	cytopathic effect	>100 µg/mL
[N-]=[N+]=NC[C@H]1O[C@@H](n2cc(I)c(=O)[nH]c2=O)C[C@@H]1O	-	BHK	plaque count	>0.5 µM
COc1cc([C@@H]2c3cc(O)c(O)cc3C[C@H]3COC(=O)[C@@H]32)cc(OC)c1OC	A4-3	MRC-5	-	0.061 µg/mL
C[C@@]12CC[C@]3(C1)C(CC2=O)C[C@@H](O)[C@H]1[C@](C)(C(=O)O)CCC[C@@]13C	F	HeLa	plaque count	254 µM
COc1ccc2nc3cc(Cl)ccc3c(NCCCCCO)c2c1	-	VERO 76	plaque count	>35 µM
CC(=O)O[C@@H]1CC2C[C@@H](OC(=O)c3ccccc3)[C@H]3[C@](C)(C(=O)O)CCC[C@]3(C)[C@]23CC[C@]1(C)C3	F	HeLa	plaque count	8.6 µM
CCC(=O)NC[C@H]1O[C@@H](n2cc(I)c(=O)[nH]c2=O)C[C@@H]1O	-	BHK	plaque count	>1 µM
COc1cc(C[C@H]2C(=O)OC[C@@H]2Cc2cc(OC)c3c(c2)OCO3)cc(OC)c1OC	KOS	MRC-5	-	>50 µg/mL
O=c1ccn([C@H]2C[C@H](O)[C@@H](CO)O2)c(=S)[nH]1	KOS	RPMI8226	plaque count	8.6 µM
COC(=O)[C@]1(C)CCC[C@@]2(C)[C@H]1[C@H](OC(=O)c1ccccc1)CC1C[C@@H](O)[C@]3(C)CC[C@]12C3	F	HeLa	plaque count	7.7 µM
Cc1cn([C@H]2C[C@H](O)[C@@H](CO)O2)c(=O)[nH]c1=O	KOS	MRC-5	plaque count	>413 µM
NC(=O)c1cn([C@@H]2O[C@H](CO)[C@@H](O)[C@H]2O)c2ncnc(N)c12	KOS	PRK	cytopathic effect	0.07 µg/mL
Nc1ccn(C[C@@H](CO)OCP(=O)(O)O)c(=O)n1	C137-101 (TK-)	-	cytopathic effect	0.4 µg/mL
COc1cc(C2C3(O)C(O)C4CC2(O)C(O)(C(=O)O4)C3C(=O)c2ccccc2)oc(=O)c1	KOS	HeLa	cytopathic effect	>100 µg/mL
Nc1ncnc2c1ccn2[C@@H]1O[C@H](CO)[C@H](O)[C@H]1O	B2006 (TK-)	PRK	cytopathic effect	0.7 µg/mL
O=c1[nH]c(=O)n([C@H]2C[C@H](O)[C@@H](CO)O2)cc1/C=C/Br	KOS PFA-resistant	HEL	cytopathic effect	0.004 µg/mL
CC(=O)[C@]1(O)Cc2c(O)c3c(c(O)c2[C@@H](O[C@H]2C[C@H](N)[C@H](O)[C@H](C)O2)C1)C(=O)c1c(O)cccc1C3=O	KOS	HeLa	cytopathic effect	>200 µg/mL
CCN(CC)CCCC(C)Nc1c2ccc(Cl)cc2nc2ccc(OC)cc12	-	VERO 76	plaque count	>20 µM
O=[N+]([O-])c1ncc[nH]1	KOS	HeLa	cytopathic effect	>200 µg/mL
O=c1[nH]c(=S)n([C@@H]2O[C@H](CO)[C@@H](O)[C@@H]2O)cc1Cl	KOS	RPMI8226	plaque count	13.9 µM
Nc1ncnc2c1ncn2[C@@H]1O[C@H](CO)[C@@H](O)[C@@H]1O	KOS PFA-resistant	HEL	cytopathic effect	11.3 µg/mL
COC(=O)c1cc2cc3cc4cc(CC(=O)O)c(/C(O)=C/C(=O)c5ccccc5O)c(OC)c4c(OC)c3c(O)c2c(=O)o1	KOS	HeLa	cytopathic effect	>200 µg/mL

Lines come from different laboratories, so protocols vary. Blank or dashed fields: not listed here.